A mixed list of measured activities; the numbers were collected in NIAID ChemDB.

All rows: toxicity to cultured cells; endpoint: CC50

Conditions beyond the fields shown may differ between rows.

SMILES | cells | read by | value
Cc1ccc(F)c(NC(=O)NCCc2ccc3c(n2)NCCC3)c1 | PBMC |  | 16.8 µM
CCCCN(CCCC)c1ccc2c(c1)Cc1cc(NC(N)=S)ccc1-2 | Ava5-EG(delta4AB)SEAP | MTS | >1 µM
O=C(NCCc1ccc2c(n1)NCCC2)Nc1ccc(Br)cc1 | PBMC |  | 1.2 µM
O=c1cc(NCc2cccc(CN3CCOCC3)c2)c2cccnc2n1O | HeLa |  | 0.13 µM
Cc1ccc(CNC(=O)NCCc2cccc(-n3ccnc3)n2)cc1 | PBMC |  | 27 µM
NC(=S)Nc1cccc(NCCCCCCCc2ccccc2)c1 | Ava5-EG(delta4AB)SEAP | MTS | >1 µM
O=C(NCCc1ccc2c(n1)NCCC2)Nc1cccc(OC(F)F)c1 | PBMC |  | 50 µM
CNC(=O)c1ccc2c(=O)n(O)c3ncccc3c2c1 | HeLa |  | <100 µM
CCOC(=O)CCCCCOc1cccc(CN(C(=O)c2ccc(-c3cnc(OC)nc3OC)cc2)C(C)C)c1 | HEK 293 |  | >20 µM
NCc1cccc(-c2cccc(-c3ccnc4c3c(O)cc(=O)n4O)c2)c1 | HeLa |  | <100 µM
CCOc1cccc(-c2ccc(C(=O)N(Cc3cccc(OCCCCCC(=O)OC(=O)O)c3)C(C)C)cc2)c1 | HepG2 |  | >20 µM
NC(=S)Nc1cccc(OCCCCCOc2cccc3[nH]ccc23)c1 | Ava5-EG(delta4AB)SEAP | MTS | >1 µM
O=c1cc(N2CCN(Cc3ccccc3)CC2)c2cccnc2n1O | HeLa |  | <100 µM
CCOC(=O)CCCCCOc1cccc(CN(C(=O)c2ccc(-c3cc(F)cc(OC)c3)cc2)C(C)C)c1 | HEK 293 |  | >20 µM
NC(=S)Nc1cccc(OCCCCCOc2ccc3ncccc3c2)c1 | Ava5-EG(delta4AB)SEAP | MTS | >1 µM
O=C(NCCc1ccc2c(n1)NCCC2)Nc1cccs1 | PBMC |  | 50 µM
CCOC(=O)CCCCCOc1cccc(CN(C(=O)c2ccc(-c3cccc(S(C)(=O)=O)c3)cc2)C(C)C)c1 | BJ |  | >20 µM
CC(=O)Nc1ccc(S(=O)(=O)NCCc2ccc3c(n2)NCCC3)cc1 | PBMC |  | 50 µM
CNC(=S)Nc1cccc(OCCCCCc2ccccc2)c1 | Ava5-EG(delta4AB)SEAP | MTS | >1 µM
O=C(C(=O)N1CCN(C(=O)c2ccccc2)CC1)c1c[nH]c2c(-n3nccn3)ccnc12 | HeLa | trypan blue | >100 µM
O=C(NCCc1ccc2c(n1)NCCC2)Nc1cccc2c1CCN2 | PBMC |  | 7.5 µM
O=c1cc(N[C@@H]2CCN(Cc3ccccc3)C2)c2cccnc2n1O | HeLa |  | <100 µM
NC(=S)Nc1ccc2c(c1)Cc1cc(N(CCCc3ccccc3)CCCc3ccccc3)ccc1-2 | Ava5-EG(delta4AB)SEAP | MTS | >1 µM
CCOC(=O)CCCCCOc1cccc(CN(C(=O)c2ccc(-c3cccc(F)c3)cc2)C(C)C)c1 | RAJI |  | >20 µM
COc1ccc(-c2ccncc2)cc1-c1cc(=O)n(O)c2ncccc12 | HeLa |  | <100 µM
Cc1nnc(-c2cccc(-c3ccc(C(=O)N(Cc4cccc(OCCCCCC(=O)OC(=O)O)c4)C(C)C)cc3)c2)o1 | BJ |  | >20 µM
O=S(=O)(NCCc1ccc2c(n1)NCCC2)c1ccc(Cl)cc1 | PBMC |  | 50 µM
COc1cnc(-c2nnc(C)o2)c2[nH]cc(C(=O)C(=O)N3CCN(C(=O)c4ccccc4)CC3)c12 | HeLa | trypan blue | >100 µM
Cc1cnn(-c2cccc(CCNC(=O)NCc3ccc(Cl)c(Cl)c3)n2)c1 | PBMC |  | 50 µM
CNC(=O)c1ncc(F)c2c(C(=O)C(=O)N3CCN(C(=O)c4ccccc4)CC3)c[nH]c12 | HeLa | trypan blue | >100 µM
O=C(c1cc(=O)n(O)c2ncccc12)N1CCc2ccccc2C1 | HeLa |  | <100 µM
Cn1ccc(-c2ncc(F)c3c(C(=O)C(=O)N4CCN(C(=O)c5ccccc5)CC4)c[nH]c23)n1 | HeLa | trypan blue | ≤100 µM
O=c1cc(NCc2ccccc2Cl)c2cccnc2n1O | HeLa |  | <100 µM

Repeating the final 4 entries:

| SMILES | cells | read by | value |
|---|---|---|---|
| CNC(=O)c1ncc(F)c2c(C(=O)C(=O)N3CCN(C(=O)c4ccccc4)CC3)c[nH]c12 | HeLa | trypan blue | >100 µM |
| O=C(c1cc(=O)n(O)c2ncccc12)N1CCc2ccccc2C1 | HeLa |  | <100 µM |
| Cn1ccc(-c2ncc(F)c3c(C(=O)C(=O)N4CCN(C(=O)c5ccccc5)CC4)c[nH]c23)n1 | HeLa | trypan blue | ≤100 µM |
| O=c1cc(NCc2ccccc2Cl)c2cccnc2n1O | HeLa |  | <100 µM |

CCn is the concentration with n% toxicity to the cells. An empty or dashed field is not shown.